Test results reported in paper PMC8605023 (Nature Communications, 2021).

System: G3BP1-YFP
Assay: AP-MS of G3BP1-YFP with N wt or N 3A peptide competition
Design: species or system Human

B1: POM121C (protein, UniProt A8CG34 1-1229, looked up)
Nuclear envelope pore …: MSPAAAAAGAGERRRPIASVRDGRGRGCGGPAGAALLGLSLVGLLLYLVPAAAALAWLAVGTTAAWWGLSREPRGSRPLSSFVQKARHRRTLFASPPAKSTANGNLLEPRTLLEGPDPAELLLMGSYLGKPGPPQPAPAPEGQDLRNRPGRRPPARPAPRSTPPSQPTHRVHHFYPSLPTPLLRPSGRPSPRDRGTLPDRFVITPRRRYPIHQTQYSCPGVLPTVCWNGYHKKAVLSPRNSRMVCSPVTVRIAPPDRRFSRSAIPEQIISSTLSSPSSNAPDPCAKETVLSALKEKKKKRTVEEEDQIFLDGQENKRRRHDSSGSGHSAFEPLVASGVPASFVPKPGSLKRGLNSQSSDDHLNKRSRSSSMSSLTGAYTSGIPSSSRNAITSSYSSTRGISQLWKRNGPSSSPFSSPASSRSQTPERPAKKIREEELCHHSSSSTPLAADKESQGEKAADTTPRKKQNSNSQSTPGSSGQRKRKVQLLPSRRGEQLTLPPPPQLGYSITAEDLDLEKKASLQWFNQALEDKSDAASNSVTETPPTTQPSFTFTLPAAATASPPTSLLAPSTNPLLESLKKMQTPPSLPPCPESAGAATTEALSPPKTPSLLPPLGLSQSGPPGLLPSPSFDSKPPTTLLGLIPAPSMVPATDTKAPPTLQAETATKPQATSAPSPAPKQSFLFGTQNTSPSSPAAPAASSASPMFKPIFTAPPKSEKEGLTPPGPSVSATAPSSSSLPTTTSTTAPTFQPVFSSMGPPASVPLPAPFFKQTTTPATAPTTTAPLFTGLASATSAVAPITSASPSTDSASKPAFGFGINSVSSSSVSTTTSTATAASQPFLFGAPQASAASFTPAMGSIFQFGKPPALPTTTTVTTFSQSLPTAVPTATSSSAADFSGFGSTLATSAPATSSQPTLTFSNTSTPTFNIPFGSSAKSPLPSYPGANPQPAFGAAEGQPPGAAKPALTPSFGSSFTFGNSAAPAPATAPTPAPASTIKIVPAHVPTPIQPTFGGATHSAFGLKATASAFGAPASSQPAFGGSTAVFSFGAATSSGFGATTQTASSGSSSSVFGSTTPSPFTFGGSAAPAGSGSFGINVATPGSSATTGAFSFGAGQSGSTATSTPFTGGLGQNALGTTGQSTPFAFNVGSTTESKPVFGGTATPTFGQNTPAPGVGTSGSSLSFGASSAPAQGFVGVGPFGSAAPSFSIGAGSKTPGARQRLQARRQHTRKK
Peptide inhibitor competition, host protein co-purified, mutant vs WT inhibitor, 4 replicates each
  T-test Difference (Mutant vs WT inhibitor, log2): 7.61 log2
Same quantity as T-test Difference column, unrounded
  Student's T-test Difference mut_wt: 7.607
